# Measured data: PubChem BioAssay AID1259414 (Drosophila RNAi Screening Center, 2018)
# Purpose: 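Fly genes that alter Wolbachia amount inside host cells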 (primary screen)
# Cells: Drosophila JW18 cells infected with Wolbachia
# Knock-down reagent: long dsRNA against Drosophila genes, 0.25 µg dsRNA per well of a 384-well plate
# Timing: 5 days
# Conditions: cells persistently infected with Wolbachia before knock-down; no added drug
# Measurement: 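Imaged fluorescence in situ signal for Wolbachia 23S rRNA per DAPI-counted host cell, given as a robust z-score within each plate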
# Direction: Wolbachia per cell robust z: higher = more Wolbachia per host cell than the plate typical
# Call rule: 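Hit when robust z is 1.5 or more, or -1.5 or less, in at least two of three replicates; excludes dsRNAs with several or no targets, genes not expressed in JW18 and well A1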
# The screen tested about 24,000 reagents; below is an unselected part of those with a known target gene and a result. Of all reagents, about 1,210 (5%) got an active call. 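Inactive calls also include excluded dsRNAs with several or no targets, genes unexpressed in JW18, and well A1, regardless of score.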 Unmarked entries are inactive.
predicted target,dsRNA,"Wolbachia per cell robust z, rep 1","Wolbachia per cell robust z, rep 2","Wolbachia per cell robust z, rep 3"
Trim9 (Tripartite motif containing 9),DRSC02242,-1.51,0.0502,-0.684
Trim9 (Tripartite motif containing 9),DRSC28679,-7.34,-0.787,-1.75
Magi,DRSC04247,0.263,0.361,-0.536
Magi,DRSC04451,0.772,-0.195,0.0413
Magi,DRSC26209,-1.26,-0.404,-0.522
CG5664,DRSC11782,-1.95,-0.677,0.673
Phyhd1 (Phytanoyl-CoA dioxygenase domain containing 1),DRSC14911,0.0559,-2.03,-0.717
Phyhd1 (Phytanoyl-CoA dioxygenase domain containing 1),DRSC26408,0.413,0.0588,-1.23
CG14569,DRSC11730,-1.74,1.55,-0.782
Bmcp,DRSC10808,-0.0227,-0.331,0.611
chic (chickadee),DRSC03507,1.5,0.844,-0.185
chic (chickadee),DRSC40795,-1.76 (active),0.77,-1.9
fne (found in neurons),DRSC20332,1.15,0.499,1.37
fne (found in neurons),DRSC25027,-0.569,-1.11,0.0662
fne (found in neurons),DRSC25129,0.655,-1.09,0.194
fne (found in neurons),DRSC40526,0.356,1.23,-0.862
CR7448 (pseudo),DRSC11828,-2.11,-6.3,0.759
CR7448 (pseudo),DRSC22485,-1.98,-2.47,-2.03
CG15096,DRSC06525,-0.72,-0.612,0.705
CG15096,DRSC29737,0.288,-0.192,-8.04
Elp6 (Elongator complex protein 6),DRSC16571,0.318,0.865,0.084
Wdr62 (WD repeat domain 62),DRSC00081,0.197,0.28,0.449
Wdr62 (WD repeat domain 62),DRSC21913,-2.93 (active),-2.09,-0.206
Wdr62 (WD repeat domain 62),DRSC36508,0.299,-0.955,0.0479
Wdr62 (WD repeat domain 62),DRSC36509,-0.0583,-1.23,-0.142
spz5 (spatzle 5),DRSC08645,0.289,0.171,-5.34
CG10029,DRSC12498,1.58,1.46,-0.167
Phf5a (PHD finger protein 5a),DRSC03261,0.646,1.91,0.0815

Called active, among the entries above:
predicted target,dsRNA,"Wolbachia per cell robust z, rep 1","Wolbachia per cell robust z, rep 2","Wolbachia per cell robust z, rep 3"
chic (chickadee),DRSC40795,-1.76 (active),0.77,-1.9
Wdr62 (WD repeat domain 62),DRSC21913,-2.93 (active),-2.09,-0.206
